A mixed list of measured activities; the numbers were collected in NIAID ChemDB.

All rows: enzyme or target tests

Neighbouring rows are from separate reports. An empty or dashed field is not shown. Percent inhibition refers to the dose given; in toxicity tests it is the harm to the cells. Fold resistance has wild type as its base. ICn: concentration for n% inhibition.

compound,dose,method,agent,read-out,changes,target,result
c1ccc(C2SCc3nc4ccccc4n32)cc1,,,HIV-1,fold resistance,RT-Y188L,Reverse transcriptase,>2
O=c1c2cccn2ccn1CCNC(=S)Nc1ccc(Br)cn1,,nucleotide incorporation,HIV-1,fold resistance,RT-K103N,Reverse transcriptase,0.944
Cc1ccc(S(=O)(=O)n2cc(C(=O)/C=C3\OC(C)(C)OC3=O)c3cc(Br)ccc32)cc1,,strand transfer / fluorescence,HIV-1,fold resistance,Y143R,Integrase,0.8
O=c1c2cccn2c2ccccc2n1CCNC(=S)Nc1ccc(Cl)cn1,,nucleotide incorporation,HIV-1,fold resistance,RT-V106A,Reverse transcriptase,16
COC(O)/C=C/c1ccc2c(c1)c(C(=O)/C=C1\OC(C)(C)OC1=O)cn2Cc1ccc(F)cc1,,strand transfer / fluorescence,HIV-1,fold resistance,Y143R,Integrase,1
O=c1cnc2ccccc2n1CCNC(=S)Nc1ccc(Br)cn1,,nucleotide incorporation,HIV-1,Ki,RT-V106A,Reverse transcriptase,0.62 µM
CC(O)/C=C/c1ccc2c(c1)c(C(=O)/C=C1\OC(C)(C)OC1=O)cn2Cc1ccc(F)cc1,,strand transfer / fluorescence,HIV-1,fold resistance,Y143R,Integrase,1
O=c1c2cccn2c2ccccc2n1CCNC(=S)Nc1ccc(Br)cn1,,nucleotide incorporation,HIV-1,Ki,RT-L100I,Reverse transcriptase,0.105 µM
Cc1cccc(C)c1OCC(=O)N[C@@H](Cc1ccccc1)[C@H](O)CN1CC[C@@H](Sc2ccncc2)C[C@H]1C(=O)NC(C)(C)C,,fluorescence,HIV,fold resistance,PR-V32I A71V,Protease,10.9
CC(C)[C@H](NC(=O)CCc1cccnc1)C(=O)N[C@@H](Cc1ccccc1)[C@@H](O)[C@H](O)[C@H](Cc1ccccc1)NC(=O)[C@@H](NC(=O)CCc1cccnc1)C(C)C,0.001 µM,fluorescence,HIV-1,inhibition,,Protease,38%
Cc1cn([C@H]2C=C[C@@H](COP(=O)(O)OP(=O)(O)OP(=O)(O)O)O2)c(=O)[nH]c1=O,,nucleotide incorporation / radiometric,HIV,fold resistance,RT-N137A,Reverse transcriptase,1.1
O=C(O)C(C(=O)O)c1c[nH]c2ccc([N+](=O)[O-])cc12,,strand transfer / fluorescence,HIV-1,fold resistance,Y143R,Integrase,0.9
CC(C)C[C@H](NC(=O)OCc1ccccc1)C(=O)N[C@@H](CC(N)=O)C(=O)NC(Cc1ccccc1)C(O)C(Cc1ccccc1)NC(=O)OC(C)(C)C,0.1 µM,fluorescence,HIV-1,inhibition,,Protease,79%
O=c1c2cccn2c2cc(Cl)c(Cl)cc2n1CCNC(=S)Nc1ccc(Br)cn1,,nucleotide incorporation,HIV-1,Ki,RT-L100I,Reverse transcriptase,0.25 µM
CC(C)[C@H](NC(=O)OCc1ccccc1)C(=O)N[C@@H](Cc1ccccc1)[C@H](O)[C@@H](O)[C@H](Cc1ccccc1)NC(=O)[C@@H](NC(=O)OCc1ccccc1)C(C)C,0.001 µM,fluorescence,HIV-1,inhibition,,Protease,65%
CO[P@](=O)(c1cc(C)cc(/C=C/C#N)c1)c1c(C(N)=O)[nH]c2ccc(Cl)c(F)c12,,,HIV,IC50,K103N,Reverse transcriptase,0.782 µM
CC1(C)OC(=O)/C(=C/C(=O)c2cn(Cc3cc(F)ccc3F)c3ccc(F)cc23)O1,,strand transfer / fluorescence,HIV-1,IC50,Y143R,Integrase,16.4 µM
CC[C@H]1C(=O)Nc2ccc(F)cc2N1C(=O)OC(C)C,,nucleotide incorporation / radiometric,HIV,IC50,RT-P95A,Reverse transcriptase,0.012 µM
CC(C)[C@H](NC(=O)NCc1ccccn1)C(=O)N[C@@H](Cc1ccccc1)C(O)[C@H](Cc1ccccc1)NC(=O)[C@@H](NC(=O)NCc1ccccn1)C(C)C,,fluorescence,HIV-1,IC50,,Protease,>0.001 µM
CCOC(=O)C(C(=O)OCC)c1cn(S(=O)(=O)c2ccc(C)cc2)c2ccc(NC(=O)c3cccc([N+](=O)[O-])c3)cc12,,strand transfer / fluorescence,HIV-1,fold resistance,Y143R,Integrase,1
O=C1c2cccnc2C(=O)N1CCNC(=S)Nc1ccc(Br)cn1,,nucleotide incorporation,HIV-1,Ki,RT-Y188L,Reverse transcriptase,0.6 µM
CC(C)[C@H](NC(=O)OCCN1CCOCC1)C(=O)N[C@@H](Cc1ccccc1)[C@H](O)[C@H](O)[C@H](Cc1ccccc1)NC(=O)[C@@H](NC(=O)OCCN1CCOCC1)C(C)C,,fluorescence,HIV-1,IC50,,Protease,>0.01 µM
CCOC(=O)C(C(=O)OCC)c1cn(S(=O)(=O)c2ccc(C)cc2)c2ccc(NC(=O)c3cccc(C)c3O)cc12,,strand transfer / fluorescence,HIV-1,fold resistance,Y143R,Integrase,1
CC(C)[C@H](NC(=O)OCc1ccccc1)C(=O)NC(Cc1ccccc1)C(O)C(Cc1ccccc1)NC(=O)[C@@H](NC(=O)OCc1ccccc1)C(C)C,,fluorescence,HIV-1,IC50,,Protease,<0.01 µM
Cc1cn([C@@H]2O[C@H](CO[Si](C)(C)C(C)(C)C)[C@@]3(OS(=O)(=O)C=C3N)[C@H]2O[Si](C)(C)C(C)(C)C)c(=O)[nH]c1=O,,nucleotide incorporation / radiometric,HIV,IC50,RT-N137T,Reverse transcriptase,0.7 µM
CC(C)[C@H](NC(=O)c1ccc2ccccc2n1)C(=O)N[C@@H](Cc1ccccc1)[C@H](O)CN1CC[C@@H](SCc2cccnc2)C[C@H]1C(=O)NC(C)(C)C,,fluorescence,HIV-2,Ki,,Protease,0.000049 µM

The last 2 rows once more:

Cc1cn([C@@H]2O[C@H](CO[Si](C)(C)C(C)(C)C)[C@@]3(OS(=O)(=O)C=C3N)[C@H]2O[Si](C)(C)C(C)(C)C)c(=O)[nH]c1=O ; method: nucleotide incorporation / radiometric ; agent: HIV ; read-out: IC50 ; changes: RT-N137T ; target: Reverse transcriptase ; result: 0.7 µM
CC(C)[C@H](NC(=O)c1ccc2ccccc2n1)C(=O)N[C@@H](Cc1ccccc1)[C@H](O)CN1CC[C@@H](SCc2cccnc2)C[C@H]1C(=O)NC(C)(C)C ; method: fluorescence ; agent: HIV-2 ; read-out: Ki ; target: Protease ; result: 0.000049 µM